# Experimental data taken from US20120149710A1, “SORTASE A INHIBITORS” (priority 2009, published 2012).
# Amino acid sequences for entries named in this document (tags omitted). Residues count along the entry.
# UniProt Q2FV99, 60-206 limits assumed: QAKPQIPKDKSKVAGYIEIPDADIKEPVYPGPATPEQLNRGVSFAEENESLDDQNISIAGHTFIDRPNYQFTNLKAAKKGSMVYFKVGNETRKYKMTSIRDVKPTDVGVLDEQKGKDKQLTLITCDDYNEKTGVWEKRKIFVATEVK
# Experiments:
# [1] = tested on: S. aureus; conditions: 500 μM inhibitor, vs 2.5% DMSO control
# [2] = biological target: S. aureus SrtA (Staphylococcus aureus, UniProt Q2FV99); experiment: FRET assay of SrtA-catalyzed hydrolysis of Abz-LPETG-Dap(Dnp); IC50 / Ki app; assay type: biochemical
# [3] = biological target: B. anthracis sortase A enzyme (Bacillus anthracis, UniProt P0DPQ5)
compound,measurement,setting,value
CC1=NN(c2ccccc2)C(=S)/C1=C/Nc1ccc(Br)cc1,"Effect on S. aureus growth in cell culture, in words",[1],do not substantially affect bacterial growth
CC1=NN(c2ccccc2)C(=S)/C1=C/Nc1ccc(/N=N/c2ccccc2)cc1,"Effect on S. aureus growth in cell culture, in words",[1],do not substantially affect bacterial growth
CCOc1cnn(-c2cccc(C)c2)c(=O)c1S,"Inhibition of S. aureus SrtA, potency in words",[2],low micromolar
CC1=NN(c2ccccc2)C(=S)/C1=C/Nc1ccccn1,"Effect on S. aureus growth in cell culture, in words",[1],do not substantially affect bacterial growth
same,potency estimated from few doses,[3],> 34000 nM
CCOc1c(S)cnn(-c2ccccc2)c1=O,Increase of potency against SrtA relative to compound 2,[2]; compare 2 with 2-1,more than 20 fold
same,Ki,"[2]; read-out: Ki app, S. aureus SrtA (unit inferred)",200 nM
same,Ki app value lower than that of compound 2,[2]; vs compound 2,about 40 fold
